# Fitness effects across NS2B and the NS3 protease domain of Zika virus

Data from the supplement of Ni et al. 2025, doi:10.1038/s41467-025-63602-z.

Chain scanned (Zika virus MR766; NS2B from position 2 to 131, then the start of NS3):
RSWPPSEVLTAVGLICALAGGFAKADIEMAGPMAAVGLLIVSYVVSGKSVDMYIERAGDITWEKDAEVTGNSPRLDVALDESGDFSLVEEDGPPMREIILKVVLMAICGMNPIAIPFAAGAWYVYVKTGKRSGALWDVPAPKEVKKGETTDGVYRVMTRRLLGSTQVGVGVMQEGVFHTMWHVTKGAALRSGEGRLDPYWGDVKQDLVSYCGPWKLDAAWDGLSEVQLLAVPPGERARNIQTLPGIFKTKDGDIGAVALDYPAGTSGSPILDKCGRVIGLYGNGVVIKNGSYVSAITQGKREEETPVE

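Mutant virus pools were grown in human Huh-7.5 cells. The effect is the change in frequency of a mutant, normalised to wild type, as a mean of three replicate libraries (two for positions 207-308). The aim was to find sites where inhibitor-binding pockets cannot change.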

Scale: log2 effect, wild type = 0; the lower, the more harmful to the virus. A change reads original residue, position, new residue. This list holds changes to proline only. The region was split into three libraries (1-103, 104-206, 207-308). Position 1 still belongs to NS2A. In the paper, -1 or higher counts as tolerated. Values above 0 are not proof of better growth: six high scorers were tested one by one, five grew less well than wild type and one about as well.

substitution,log2 growth effect
G279P,-5.56
L280P,-6.83
Y281P,-5.86
G282P,-5.22
N283P,-5.90
G284P,-5.24
V285P,-5.09
V286P,-5.85
I287P,-1.02
K288P,0.08
N289P,-6.43
G290P,-6.06
S291P,-5.93
Y292P,-5.65
V293P,-5.84
S294P,-5.42
A295P,-6.63
I296P,-5.46
T297P,-5.39
Q298P,-6.08
G299P,-5.59
K300P,-5.87
R301P,-3.09
E302P,-1.77
E303P,-0.23
E304P,-0.51
T305P,-0.31
V307P,-1.01
E308P,0.00

Extract of 2 entries:

{"substitution": "V286P", "log2 growth effect": -5.85}
{"substitution": "Y292P", "log2 growth effect": -5.65}